# PubChem BioAssay AID504761 | Drosophila RNAi Screening Center, 2011
# Aim: 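Fly genes whose silencing reduces dengue virus type 2 infection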 (primary screen)
# Cells: D.Mel-2 cells from Drosophila
# Reagents: long dsRNA against Drosophila genes
# Challenge: infection with dengue virus type 2; dose and infection time not stated
# Measurement: 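Per well on two replicate plates, imaging gave the percent of cells positive for viral envelope protein, ranked by infection, and a nuclear count of cells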
# Reading the numbers: infection score: higher = more virus-infected cells; cell count: higher = more cells in the well
# Call rule: 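Low infection ranks in the two replicates (chance level up to 0.065) followed by a retest with a 1.5-fold or larger significant decrease, p below 0.05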
# Meaning of the calls: active = confirmed: knock-down lowers infection; inactive = not picked or not confirmed
# In all, the deposit lists about 22,000 reagents; shown is a random part of those with a known target gene and a result. Over the whole deposit, 116 (0.52%) are marked active. 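Calls depend on retest data that are not deposited; infection was ranked per plate without normalising between plates; the unit of the infection score is not given.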 Raw values are not corrected between plates. Names joined by + are all predicted targets of the reagent. The record does not give: the amount of reagent, the time to read-out.
Target gene,dsRNA,"infection score, replicate 1","infection score, replicate 2","cell count, replicate 1","cell count, replicate 2",activity call
CG31342,DRSC15349,8.76,7.6,1609,4224,inactive
CG31342,DRSC16246,7.07,6.47,6135,7231,inactive
aln,DRSC08240,0.33,2.14,6323,6499,inactive
Jhbp6,DRSC11714,7.97,13.3,7418,7320,inactive
Jhbp6,DRSC26892,4.1,2.89,6373,3466,inactive
Pfdn6,DRSC10915,5.04,8.29,6310,6173,inactive
rpr,DRSC11390,7.71,2.68,6188,4919,inactive
Dcps,DRSC12299,8.39,5.61,4852,6843,inactive
coro,DRSC05007,17.1,44.6,6343,5314,inactive
coro,DRSC21417,2.63,1.63,6161,6275,inactive

Not a retest: 2 of the entries above.
Target gene,dsRNA,"infection score, replicate 1","infection score, replicate 2","cell count, replicate 1","cell count, replicate 2",activity call
CG31342,DRSC16246,7.07,6.47,6135,7231,inactive
aln,DRSC08240,0.33,2.14,6323,6499,inactive

Next results:
Target gene,dsRNA,"infection score, replicate 1","infection score, replicate 2","cell count, replicate 1","cell count, replicate 2",activity call
CG3597,DRSC00617,7.13,3.05,6463,6395,inactive
CG3597,DRSC24376,1.13,2.27,6832,6071,inactive
CG2794,DRSC00534,11.5,22.1,6332,6136,inactive
CG10038,DRSC14178,10.3,4.87,6893,6979,inactive
AkhR,DRSC03329,1.75,7.69,5781,5135,inactive
AkhR,DRSC28694,21,9.57,5645,3573,inactive
CG15312,DRSC18000,8.6,4.59,5990,6399,inactive
CG15312,DRSC27198,12.9,26.2,7232,6065,inactive
epsilonCOP,DRSC02003,1.23,1.01,6087,6366,inactive
epsilonCOP,DRSC26466,8.13,6.18,5854,6031,inactive
CG32536 + CG32537,DRSC20074,1.85,1.25,6112,5434,inactive
CG34457,DRSC06924,5.31,25.8,6497,5189,inactive
Ent3,DRSC09822,4.49,7.32,6285,5981,inactive
Ent3,DRSC29706,21.8,9.37,6112,6231,inactive
